# Screening data, single-dose tests

Results are given as percent effect.
The controls that fix the scale are not given in the record; negative values are as filed.
The entries come from a sample that favours strong results.

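Whole-cell growth test on Mycobacterium tuberculosis, read after 4 days in a medium based on cholesterol and the lipid DPPC; the read-out is not stated. Concentration: 500 µM. The record gives no direction; compounds that gave an IC50 in retests scored well above the rest, so higher reads as more growth inhibition. About 18,000 compounds were tested under these conditions; 5% (about 900) showed 50% or more at least once.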

structure,Percent Effect
CC(=O)N1CC(NC(=O)c2cccc(Br)c2Cl)C1,10.93
CCCNC(=O)c1nnn(-c2ccccc2OC)c1C,68.11
COCc1nn(Cc2ccccc2Cl)c(=O)o1,53.31
Cc1cc(CC(=O)NCCCc2ccncc2)on1,87.19
CC1(C)CN(CC2CCCCO2)CCO1 (stereo not shown),0.65
NCCc1ccc(C(F)(F)F)cn1,23.18
CCC(N)C(=O)N(CC)Cc1ccoc1 (stereo not shown),-14.3
COc1ccccc1NC(=O)c1ccc(C)nc1,25.24
CNCC(=O)NCCc1nc(-c2cccnc2)n[nH]1,2.852
CCc1nnsc1C(=O)NC(C)CN1CCOCC1 (stereo not shown),-8.528
COc1ccccc1OCCN1CCN(CCO)CC1,-4.525
COc1cccc(C(=O)N2C[C@H](C3CC3)[C@@H](N)C2)c1C,19.18
Cn1cncc1CCNS(=O)(=O)c1cccs1,18.48
N#Cc1cccc(C(=O)OCCCn2cccn2)c1,68.64

2 of the entries, repeated:

| structure | Percent Effect |
|---|---|
| `CCc1nnsc1C(=O)NC(C)CN1CCOCC1` (stereo not shown) | -8.528 |
| `CC(=O)N1CC(NC(=O)c2cccc(Br)c2Cl)C1` | 10.93 |

Source: ChEMBL document CHEMBL3988442, “University of Dundee, Small-Polar-MMV Screening Library” (2021).